Anti-infective test results gathered from many reports (values: NIAID ChemDB through PubChem).

Common to all: growth or infection tests; species: Mycobacterium tuberculosis

Rows are shuffled and stem from different studies. Percent inhibition refers to the dose given; in toxicity tests it is the harm to the cells. ECn is the concentration giving n% inhibition of infection, replication or growth. A number after MIC or MFC names an inhibition level or a share of isolates. Two numbers with a dash give a range or band. MIC bound comes from a single tested concentration. An empty or dashed field is not shown.

SMILES,cells,method,dose,strain or isolate,measure,value
O=[N+]([O-])c1ccc(Oc2cnc3nc(-c4cccc(Br)c4)[nH]c3c2)cc1,,resazurin / absorbance,,H37Rv,MIC80,0.7 µM
Nc1ccccc1Sc1ccc(N)c2cccnc12,,,,H37Rv,MIC,100 µg/mL
CCSSC(SC)C(N)=O,,,,H37Rv,MIC,250 µM
CCn1cc(C(=O)O)c(=O)c2cc(F)c(N3CCN(Cn4c(O)c(N=NC(N)=O)c5ccccc54)CC3)cc21,,BACTEC,,H37Rv,EC50,<12.5 µg/mL
Cc1ccc(NC(=O)C2(c3cccs3)CCOCC2)cc1Cl,,turbidity,,CDC1551,EC50,200 µM
CCn1cc(C(=O)O)c(=O)c2cc(F)c(N3CCN(Cn4c(O)c(N=NC(N)=S)c5cc(Cl)ccc54)CC3)cc21,,BACTEC,12.5 µg/mL,H37Rv,inhibition,97%
CC(=O)N=C1C=C(NC(C)=O)C(=O)c2ccccc21,,BACTEC,,H37Rv,MIC,6.25 µg/mL
O=C(CCC(F)(F)F)N1CC(c2ccc(Cl)cc2)C1,THP-1,fluorescence,,H37Rv,EC50,0.05–0.25 µM
C#CCN(CC#C)CCCCNc1ccnc2cc(Cl)ccc12,,resazurin,,H37Rv,MIC,15.6 µg/mL
CCCCC(/C=N/NC(=O)C(=O)N/N=C/C(CC)CCCC)CC,,BACTEC,12.5 µg/mL,H37Rv,inhibition,-2%
O=C(CCC(F)(F)F)N1CC(C2CCOCC2)C1,THP-1,fluorescence,,H37Rv,EC50,0.05–0.25 µM
Cc1c(CN2CCN(C)CC2)cc(-c2ccccc2Cl)n1-c1ccccc1,,,,103471,MIC,>16 µg/mL
Cn1c(=O)c([N+](=O)[O-])cn(-c2ccc([N+](=O)[O-])cc2)c1=O,,,6.25 µg/mL,,inhibition,<90%
O=C(O)c1ccc(=O)[nH]c1,,broth dilution / resazurin,,H37Rv ATTC 27294,MIC90,>359.4 µM
Cc1cc(C)c(NC(=O)C2(c3cccs3)CCOCC2)c(C)c1,,turbidity,,CDC1551,EC50,200 µM
CC1=CC(=O)c2c(ccc(-c3ccc4c(c3O)C(=O)C=C(C)C4=O)c2O)C1=O,,resazurin,,H37Rv (S-MTB),MIC,>100 µg/mL
Cc1cc(C(=O)/C=C/c2ccc(N(C)C)cc2)ccc1O,,,,H37Rv,MIC,6.25 µg/mL
Nc1ccc(Sc2cc(Cl)ccc2Cl)c2ncccc12,,,,H37Rv,MIC,40 µg/mL
c1ccc(-c2ccc(COC(Cn3ccnc3)c3ccccc3)cc2)cc1,,,,CIP103471,MIC,8 µg/mL
CC1=C(O)c2cccc(O)c2C(=O)C1=O,,resazurin,,CIBIN 99 (MDR-MTB),MIC,25 µg/mL
O=c1ccc2nc3ccccc3sc-2c1,,BACTEC,,H37Rv,MIC bound,≤12.5 µg/mL
CC(C)c1ccc(NC(=O)C2(c3cccs3)CCOCC2)cc1,,turbidity,,CDC1551,EC50,8.5 µM
O=C(CCC(F)(F)F)N1CC(c2cc(F)c(F)c(F)c2)C1,THP-1,fluorescence,,H37Rv,EC50,0.05–0.25 µM
CC1=CC(=O)c2c(O)cccc2C1=O,,resazurin,,CIBIN 99 (MDR-MTB),MIC,1.56 µg/mL
ONC(=S)N/N=C/c1ccccc1O,,,,H37Rv,MIC,25.58 µM
O=c1[nH]c(=O)n(-c2ccc([N+](=O)[O-])cc2)cc1Cl,,,6.25 µg/mL,,inhibition,<90%
COc1ccc(/C=C/C(=O)c2ccc(O)c(C)c2)cc1OC,,,6.25 µg/mL,H37Rv,inhibition,92%
c1ccc(P(CCCCP(c2ccccc2)c2ccccc2)c2ccccc2)cc1,,broth dilution / resazurin,,H37Rv ATTC 27294,MIC90,117.2 µM
O=c1ccn(-c2ccc([N+](=O)[O-])cc2[N+](=O)[O-])c(=O)[nH]1,,,6.25 µg/mL,,inhibition,<90%
O=[N+]([O-])c1ccc(Oc2cnc3nc(-c4ccc(F)cc4O)[nH]c3c2)cc1,,resazurin / absorbance,,H37Rv,MIC80,1.5 µM
O=C(CCC(F)(F)F)N1CC(c2ccc(F)cc2C(F)(F)F)C1,THP-1,fluorescence,,H37Rv,EC50,0.05–0.25 µM
CCC(Oc1c2ccoc2c(OC)c2oc(C)cc(=O)c12)C(=O)OCCN1CCOCC1,,BACTEC,,H37Rv,MIC bound,>12.5 µg/mL
Cc1ccc(C(Cn2ccnc2)OCc2ccc(C(C)(C)C)cc2)cc1,,,,CIP103471,MIC,1 µg/mL
O=[N+]([O-])c1ccc(Oc2cnc3nc(-c4ccc([N+](=O)[O-])cc4)[nH]c3c2)cc1,,resazurin / absorbance,,H37Rv,MIC80,1.1 µM
Cc1cc(C2=NNC(c3ccc(Cl)cc3)C2)ccc1O,,,6.25 µg/mL,H37Rv,inhibition,90%
COC(=O)/C(=N\NC(C)(C)C)C(C(=O)OC)C(=O)C(=O)Nc1nc2ccc([N+](=O)[O-])cc2s1,,resazurin,6.25 µg/mL,H37Rv,inhibition,2%
Cc1cn2c(C(=O)NCc3ccc(N4CCN(c5ccc(C(F)(F)F)cn5)CC4)c(F)c3)c(C)nc2s1,Human liver microsomes,luminescence,,H37Rv,EC50,10.2 µM
N#Cc1c(O)oc2cccnc12,,BACTEC,,H37Rv,MIC bound,>12.5 µg/mL
COc1ccc(CNC(=O)c2ccc([N+](=O)[O-])o2)cc1OC,,,,,MIC90,0.2 µg/mL
CO[C@H]1/C=C/O[C@@]2(C)Oc3c(C)c(O)c4c(O)c(c5c(c4c3C2=O)NC2(CCN(CC(C)C)CC2)N=5)=NC(=O)/C(C)=C\C=C\[C@H](C)[C@H](O)[C@@H](C)[C@@H](O)[C@@H](C)[C@H](OC(C)=O)[C@@H]1C,,,,Strain 10,MIC,0.003 µg/mL
CCCCCc1cc(/C=C2/N=C(c3ccc[nH]3)C=C2OC)[nH]c1C,,BACTEC,,H37Rv,MIC bound,≤128 µg/mL
O=[N+]([O-])c1ccc(Oc2cnc3nc(-c4ccccc4F)[nH]c3c2)cc1,,resazurin / absorbance,,H37Rv,MIC80,1 µM
CCOc1ccc2c(c1)n([O-])c1cc(Br)ccc1[n+]2=O,,BACTEC,,H37Rv,MIC,1.6 µg/mL
Cc1cccc(-c2nc3ncc(Oc4ccc([N+](=O)[O-])cc4)cc3[nH]2)c1,,resazurin / absorbance,,H37Rv,MIC80,1.5 µM
CCn1cc(C(=O)O)c(=O)c2cc(F)c(N3CCN(CN4C(=O)C(=O)c5cc(Br)ccc54)CC3)cc21,,BACTEC,12.5 µg/mL,H37Rv,inhibition,90%
O=S1(=O)OC(c2cc(Br)c(O)c(Br)c2)(c2cc(Br)c(O)c(Br)c2)c2ccccc21,,BACTEC,12.5 µg/mL,H37Rv,inhibition,3%
CC(=O)Nc1ccc(NC(=O)C2(c3cccs3)CCOCC2)cc1,,turbidity,,CDC1551,EC50,200 µM
CC[C@@H](CO)NCCN[C@@H](CC)CO,,broth dilution / resazurin,,H37Rv ATTC 27294,MIC90,5.6 µM
O=[N+]([O-])c1ccc(Sc2ccc(Cl)cc2Cl)c2ncccc12,,,,H37Rv,MIC,4 µg/mL
CC(/C=C/c1ccco1)=N\NC(=O)c1ccncc1,,BACTEC,,H37Rv,MIC bound,≤12.5 µg/mL
O=C(CCC(F)(F)F)N1CC(c2ccc(C(F)(F)F)cc2)C1,THP-1,fluorescence,,H37Rv,EC50,0.25–0.5 µM
CC(C)(C)c1ccc(COC(Cn2ccnc2)c2ccccc2)cc1,,,,CIP103471,MIC,1 µg/mL
CCn1cc(C(=O)O)c(=O)c2cc(F)c(N3CCN(Cn4c(O)c(N=NC(N)=O)c5cc(Br)ccc54)CC3)cc21,,BACTEC,,H37Rv,EC50,<12.5 µg/mL
NNC(=O)c1ccncc1,,resazurin / absorbance,,H37Rv,MIC80,0.3 µM
CC(=O)Nc1cccc(NC(=O)C2(c3cccs3)CCOCC2)c1,,turbidity,,CDC1551,EC50,200 µM
OC(CC1CCCCN1)c1cc(C(F)(F)F)nc2c(C(F)(F)F)cccc12,,resazurin,6.25 µg/mL,H37Rv,inhibition,61%
Clc1ccc(C(Cn2ccnc2)OC/C=C/c2ccccc2)cc1,,,,CIP103471,MIC,8 µg/mL
C=CCNC(=S)Nc1ccc(-c2nnc(SCc3ccc(Cl)cc3Cl)n2-c2ccccc2)cc1,,,,H37Rv,MIC,6.25 µg/mL
CCC(=O)NNC(=O)c1ccccn1,,resazurin,,H37Rv,MIC bound,>6.25 µg/mL
Cc1ccccc1S(=O)(=O)c1ccc(N)c2cccnc12,,,,H37Rv,MIC,0.1 µg/mL
CCOC(=O)Cc1csc(NNC(=O)c2ccccc2)n1,,BACTEC,12.5 µg/mL,H37Rv,inhibition,1%
C#CCNCCNc1ccnc2cc(Cl)ccc12.[Cl][Pt+2][Cl],,resazurin,,H37Rv,MIC,125 µg/mL
COc1cccc(-n2c3nc(=O)n(C)c(=O)c-3nc3ccccc32)c1,,BACTEC,,H37Rv,MIC bound,>12.5 µg/mL
O=c1[nH]c(=O)n(-c2ccc([N+](=O)[O-])cc2)cc1[N+](=O)[O-],,,6.25 µg/mL,,inhibition,<90%
Nc1ccc(SC2NC=CS2)c2ncccc12,,,,H37Rv,MIC,1 µg/mL
CC(=O)C(N=Nc1ccc(S(=O)(=O)NC2ONC(C)C2C)cc1)C(=O)Nc1cccc2ccccc12,,BACTEC,12.5 µg/mL,H37Rv,inhibition,-4%
Cc1c(CN2CCN(C)CC2)cc(-c2cccc3ccccc23)n1-c1ccccc1,,,,103471,MIC,>16 µg/mL
NCCCNc1ccnc2cc(Cl)ccc12.[Cl][Pt][Cl],,resazurin,,H37Rv,MIC,125 µg/mL
Cc1cc(Oc2ccc(N)c3cccnc23)cc(C)c1Cl,,,,H37Rv,MIC,0.1 µg/mL
Cn1c(=O)ccn(-c2ccc([N+](=O)[O-])cc2)c1=O,,,6.25 µg/mL,,inhibition,<90%
O=c1[nH]c2c(Cl)cc(Cl)cc2c2ccccc12,,BACTEC,,H37Rv,MIC bound,>12.5 µg/mL
CCc1ccc(NC(=O)C2(c3cccs3)CCOCC2)cc1,,turbidity,,CDC1551,MIC99,342 µM
O=[N+]([O-])c1ccc(Oc2cnc3nc(-c4ccc(Cl)cc4)[nH]c3c2)cc1,,resazurin / absorbance,,H37Rv,MIC80,1.9 µM
C#CCN(CC#C)CCNc1ccnc2cc(Cl)ccc12,,resazurin,,H37Rv,MIC,12.5 µg/mL
CC1=CC(=O)c2c(O)ccc(-c3ccc(O)c4c3C(=O)C(C)=CC4=O)c2C1=O,,resazurin,,CIBIN 99 (MDR-MTB),MIC,3.13 µg/mL
c1ccc(-c2ccccn2)nc1,,broth dilution / resazurin,,H37Rv ATTC 27294,MIC90,169.1 µM
Cc1cc(C2=NNC(c3c(Cl)cccc3Cl)C2)ccc1O,,,,H37Rv,MIC,>6.25 µg/mL
COC(=O)c1ccc(C(=O)OC)c2nn3c(N)nnc3nc12,,resazurin,,H37Rv,MIC bound,>6.25 µg/mL
CC1COc2c(N3CCN(C)CC3)c(F)cc3c(=O)c(C(=O)O)cn1c23,,resazurin,,H37Rv (S-MTB),MIC,0.25 µg/mL
CCOC(=O)c1ccc(NC(=O)C2(c3cccs3)CCOCC2)cc1,,turbidity,,CDC1551,EC50,200 µM
O=[N+]([O-])c1ccc(Oc2cnc3nc(-c4cccc([N+](=O)[O-])c4)[nH]c3c2)cc1,,resazurin / absorbance,,H37Rv,MIC80,0.8 µM
Nc1ccc(Sc2nc3ccccc3[nH]2)c2ncccc12,,,,H37Rv,MIC,100 µg/mL
COc1cc(/C=C/C(=O)c2ccc(O)c(C)c2)cc(OC)c1OC,,,,H37Rv,MIC,>6.25 µg/mL
O=C1C(=O)c2ccccc2C(O)=C1C(/C=C/c1ccccc1)C1=C(O)c2ccccc2C(=O)C1=O,,BACTEC,,H37Rv,MIC bound,>12.8 µg/mL
CCn1cc(C(=O)O)c(=O)c2cc(F)c(N3CCN(Cn4c(O)c(N=NC(=O)c5ccncc5)c5ccccc54)CC3)cc21,,BACTEC,12.5 µg/mL,H37Rv,inhibition,100%
CO[C@H]1/C=C/O[C@@]2(C)Oc3c(C)c(O)c4c(O)c(c(/C=N/N5CCN(C)CC5)c(O)c4c3C2=O)NC(=O)/C(C)=C\C=C\[C@H](C)[C@H](O)[C@@H](C)[C@@H](O)[C@@H](C)[C@H](OC(C)=O)[C@@H]1C,,resazurin,,SIT149,MIC,0.5 µg/mL
Cc1c(CN2CCSCC2)cc(-c2ccccc2)n1-c1cccc2ccccc12,,,,103471,MIC,>16 µg/mL
Cc1cc(C)c2c(c1)NP(=O)(c1ccccc1)N2,,resazurin,,H37Rv,MIC bound,>6.25 µg/mL
Cc1c(CN2CCN(C)CC2)cc(-c2ccccc2Cl)n1-c1cccc2ccccc12,,,,103471,MIC,4 µg/mL
COc1ccccc1NC(=O)CC(=O)N1N=C(c2ccccc2)C(N=Nc2ccc(Cl)cc2)C1=O,,BACTEC,,H37Rv,MIC bound,>12.5 µg/mL
O=[N+]([O-])c1ccc(Sc2ccc(O)cc2)c2ncccc12,,,,H37Rv,MIC,>200 µg/mL